Measurements taken from US8674118B2, “Compounds and methods for the treatment or prevention of flavivirus infections” (priority 2005, dated 2014).

Tested on: HCV RNA replication (replicon cell lines Huh-7, 5.2 and ET)
Test: Cell-Based Luciferase Reporter HCV RNA Replication Assay
Conditions: Huh-7, 5.2 or ET replicon cells, luciferase counts after 4 days incubation

| Structure (SMILES) | pIC50 |
| --- | --- |
| CC1CCC(C(=O)N(c2cc(C3=CCCCC3)sc2C(=O)O)C2CCN(Cc3cccnc3)CC2)CC1 (stereo not shown) | > 5.30 |
| CC1CCC(C(=O)N(c2cc(C3CCC(C)(C)CC3)sc2C(=O)O)C2CCN(C)CC2)CC1 (stereo not shown) | > 5.30 |
| CN1CCC(N(c2cc(C3=CCCCC3)sc2C(=O)O)C(=O)[C@H]2CC[C@H](C)CC2)CC1 (relative stereo) | > 5.30 |
| C[C@H]1CC[C@H](C(=O)N(c2cc(C3=CCCCC3)sc2C(=O)O)C2CCN(CCF)CC2)CC1 (relative stereo) | > 5.30 |

pIC50: −log10 of the molar value. This is a selection: effects in other tests are not listed, and their absence says nothing.
